Literature values as cited in PMC12406664, “New derivatives of 6-nitrocoumarin-3-thiosemicarbazone exhibit improved antiparasitic activity in the placenta against Trypanosoma cruzi and Toxoplasma gondii” (Antimicrobial Agents and Chemotherapy, 2025).

How the values were obtained:
T. cruzi = system: T. cruzi; design: method as in ref 28 (b), 32, 33 (c, d); settings: Fig. 2 literature compounds, ref 28 (b), 32, 33 (c, d); cited from earlier work
T. gondii = system: T. gondii; design: method as in ref 26 (a), 34 (e), 38 (f); settings: Fig. 2 literature compounds, ref 26 (a), 34 (e), 38 (f); cited from earlier work

| Structure (SMILES) | SI = EC50 (mammalian cell model) / IC50 (parasite) (T. cruzi) | SI = EC50 (mammalian cell model) / IC50 (parasite) (T. gondii) |
| --- | --- | --- |
| O=C(Cc1c([N+](=O)[O-])c(=O)oc2ccccc12)c1cccnc1 [c] | 1.46 |  |
| O=C(O)c1cn(C2CC2)c2cc(N3CCN(Cc4ccc([N+](=O)[O-])o4)CC3)c(F)cc2c1=O [f] |  | 7 |
| COc1ccc(/C(COc2ccc(F)cc2)=N\NC(N)=S)cc1 [a] |  | 19 |
| O=c1oc2c(O)c(O)ccc2cc1-c1ccccc1O [d] | 1.73 |  |
| C/C(=N\N=C1\NC(=O)CS1)c1cc2ccccc2oc1=O [e] |  | > 70 |
